Source: article PMC6110920
Protein sequences can lack the tags named with them.

Molecular target: T1, His6-ANR (Pseudomonas aeruginosa PAO1) (UniProt P23926)
T1 sequence (looked up): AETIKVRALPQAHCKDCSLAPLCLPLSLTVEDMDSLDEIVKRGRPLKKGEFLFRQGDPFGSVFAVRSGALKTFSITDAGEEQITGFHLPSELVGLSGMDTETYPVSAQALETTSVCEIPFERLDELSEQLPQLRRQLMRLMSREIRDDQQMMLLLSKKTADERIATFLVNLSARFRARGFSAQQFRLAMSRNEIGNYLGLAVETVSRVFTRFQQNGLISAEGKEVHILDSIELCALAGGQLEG
Assay: DNase I footprinting
Details: 30 pmol ANR with 0.45 pmol DNA in 50 ul, ANR preincubated with 100 mM DTT and 0.1 mM Fe(II), aerobic; DNase I footprinting: 0.45 pmol DNA, 0-30 pmol ANR in 50 ul, 20 min at room temperature; binding buffer, salt and pH not stated (protein in 50 mM Tris pH 8.0); recombinant protein; residues 2-244; protein details: N-terminal His6; label: 5' 6-FAM on reverse primer strand; probe letters rebuilt from the primers and the genome

GCGATGCATCGCCCTCGGCCAGCGCAGGGCGGTCGGCAAGGTGGTGGTGGAGGTTCGCTGAGCCACGAAGGCGGCGAGTATTGCCTCCCGCCCGTGCGGAGAAAGGCATGGCGGGCCGGAGCGATACACCGGCCGAGGCCCACGCTGTCAGATGTTTTTCCCCTATGAAGGCCCCGGTTTCCGACCGGGGCTTTCTTATTTCCGACCAATGCACTCAACCTGTAACATTTCCGCTATTTTTTCATTTACGAAAAATGTAGTGTTCGCAACCGCGTAAAAAGGCGCGACACAACAACAAGCGGAGCTCGCGA (double strand) [glpT upstream region, 301 bp]
binding result: binds
